pKd: −log10 of the molar value.
Target: Recombinant Human Glycoprotein 130 Fc Chimera (human) (UniProt P40189)

Substance: staphylococcal enterotoxin M (SEM)
- pKd: 5.30
- koff: 0.0099 s⁻¹
- kon: 1990 M⁻¹ s⁻¹
